# Measurements as given in a compilation of properties of binary mixtures (doi:10.1021/acs.jced.0c00879).
# Experiment: xn = mol fraction of the nth substance listed
# Conditions: 101 kPa
smiles,measurement,setting,value
CC[n+]1ccn(C)c1.O=S(=O)(F)[N-]S(=O)(=O)F + O=S(=O)(F)[N-]S(=O)(=O)F.[K+],electrical conductivity,"258 K, x2 = 0.2",0.149 S/m
same,electrical conductivity,"263 K, x2 = 0.1",0.332 S/m
same,electrical conductivity,"263 K, x2 = 0.2",0.206 S/m
same,electrical conductivity,"268 K, x2 = 0",0.595 S/m
same,electrical conductivity,"268 K, x2 = 0.1",0.427 S/m
same,electrical conductivity,"268 K, x2 = 0.2",0.277 S/m
same,electrical conductivity,"273 K, x2 = 0.1",0.539 S/m
same,mass density,"273 K, x2 = 0.1",1504 kg/m3
same,viscosity,"273 K, x2 = 0.1",71 mPa·s
same,electrical conductivity,"273 K, x2 = 0.2",0.361 S/m
same,mass density,"273 K, x2 = 0.2",1547 kg/m3
same,viscosity,"273 K, x2 = 0.2",119 mPa·s
same,electrical conductivity,"278 K, x2 = 0",0.88 S/m
same,mass density,"278 K, x2 = 0",1460 kg/m3
same,viscosity,"278 K, x2 = 0",37.5 mPa·s
same,electrical conductivity,"278 K, x2 = 0.1",0.666 S/m
same,mass density,"278 K, x2 = 0.1",1499 kg/m3
same,viscosity,"278 K, x2 = 0.1",56.3 mPa·s
same,electrical conductivity,"278 K, x2 = 0.2",0.461 S/m
same,mass density,"278 K, x2 = 0.2",1542 kg/m3
same,viscosity,"278 K, x2 = 0.2",91.4 mPa·s
same,electrical conductivity,"283 K, x2 = 0",1.05 S/m
same,mass density,"283 K, x2 = 0",1456 kg/m3
same,viscosity,"283 K, x2 = 0",31.2 mPa·s
same,electrical conductivity,"283 K, x2 = 0.1",0.808 S/m
same,mass density,"283 K, x2 = 0.1",1495 kg/m3
same,viscosity,"283 K, x2 = 0.1",45.7 mPa·s
same,electrical conductivity,"283 K, x2 = 0.2",0.575 S/m
same,mass density,"283 K, x2 = 0.2",1537 kg/m3
same,viscosity,"283 K, x2 = 0.2",71.7 mPa·s
same,electrical conductivity,"288 K, x2 = 0",1.23 S/m
same,mass density,"288 K, x2 = 0",1451 kg/m3
same,viscosity,"288 K, x2 = 0",26.2 mPa·s
same,electrical conductivity,"288 K, x2 = 0.1",0.966 S/m
same,mass density,"288 K, x2 = 0.1",1490 kg/m3
same,viscosity,"288 K, x2 = 0.1",37.5 mPa·s
same,electrical conductivity,"293 K, x2 = 0",1.43 S/m
same,viscosity,"293 K, x2 = 0",22.3 mPa·s
same,electrical conductivity,"293 K, x2 = 0.1",1.14 S/m
same,mass density,"293 K, x2 = 0.1",1485 kg/m3
same,viscosity,"293 K, x2 = 0.1",31.4 mPa·s
same,electrical conductivity,"293 K, x2 = 0.2",0.85 S/m
same,mass density,"293 K, x2 = 0.2",1528 kg/m3
same,viscosity,"293 K, x2 = 0.2",46.6 mPa·s
same,electrical conductivity,"298 K, x2 = 0",1.64 S/m
same,viscosity,"298 K, x2 = 0",19.2 mPa·s
same,electrical conductivity,"298 K, x2 = 0.2",1.01 S/m
same,mass density,"298 K, x2 = 0.2",1523 kg/m3
same,viscosity,"298 K, x2 = 0.2",39.1 mPa·s
same,electrical conductivity,"303 K, x2 = 0.1",1.53 S/m
same,mass density,"303 K, x2 = 0.1",1476 kg/m3
same,viscosity,"303 K, x2 = 0.1",22.7 mPa·s
same,electrical conductivity,"303 K, x2 = 0.2",1.19 S/m
same,mass density,"303 K, x2 = 0.2",1518 kg/m3
same,viscosity,"303 K, x2 = 0.2",32.8 mPa·s
same,electrical conductivity,"308 K, x2 = 0.1",1.75 S/m
same,mass density,"308 K, x2 = 0.1",1471 kg/m3
same,viscosity,"308 K, x2 = 0.1",19.6 mPa·s
same,electrical conductivity,"308 K, x2 = 0.2",1.38 S/m
same,mass density,"308 K, x2 = 0.2",1513 kg/m3
same,viscosity,"308 K, x2 = 0.2",27.7 mPa·s
same,electrical conductivity,"313 K, x2 = 0",2.35 S/m
same,viscosity,"313 K, x2 = 0",12.9 mPa·s
same,electrical conductivity,"313 K, x2 = 0.1",1.98 S/m
same,mass density,"313 K, x2 = 0.1",1466 kg/m3
same,viscosity,"313 K, x2 = 0.1",17 mPa·s
same,electrical conductivity,"313 K, x2 = 0.2",1.59 S/m
same,mass density,"313 K, x2 = 0.2",1508 kg/m3
same,viscosity,"313 K, x2 = 0.2",23.8 mPa·s
same,electrical conductivity,"318 K, x2 = 0",2.61 S/m
same,viscosity,"318 K, x2 = 0",11.4 mPa·s
same,electrical conductivity,"318 K, x2 = 0.1",2.22 S/m
same,mass density,"318 K, x2 = 0.1",1462 kg/m3
same,viscosity,"318 K, x2 = 0.1",14.9 mPa·s
same,electrical conductivity,"323 K, x2 = 0",2.89 S/m
same,viscosity,"323 K, x2 = 0",10.2 mPa·s
same,electrical conductivity,"323 K, x2 = 0.1",2.48 S/m
same,mass density,"323 K, x2 = 0.1",1457 kg/m3
same,viscosity,"323 K, x2 = 0.1",13.1 mPa·s
same,electrical conductivity,"328 K, x2 = 0.1",2.75 S/m
same,mass density,"328 K, x2 = 0.1",1453 kg/m3
same,viscosity,"328 K, x2 = 0.1",11.6 mPa·s
same,electrical conductivity,"328 K, x2 = 0.2",2.29 S/m
same,mass density,"328 K, x2 = 0.2",1494 kg/m3
same,viscosity,"328 K, x2 = 0.2",15.7 mPa·s
same,electrical conductivity,"333 K, x2 = 0.2",2.54 S/m
same,mass density,"333 K, x2 = 0.2",1490 kg/m3
same,viscosity,"333 K, x2 = 0.2",13.8 mPa·s
same,electrical conductivity,"338 K, x2 = 0",3.79 S/m
same,mass density,"338 K, x2 = 0",1406 kg/m3
same,viscosity,"338 K, x2 = 0",7.45 mPa·s
same,electrical conductivity,"338 K, x2 = 0.1",3.33 S/m
same,mass density,"338 K, x2 = 0.1",1444 kg/m3
same,viscosity,"338 K, x2 = 0.1",9.3 mPa·s
same,electrical conductivity,"338 K, x2 = 0.2",2.83 S/m
same,mass density,"338 K, x2 = 0.2",1485 kg/m3
same,viscosity,"338 K, x2 = 0.2",12.2 mPa·s
same,electrical conductivity,"343 K, x2 = 0",4.13 S/m
same,mass density,"343 K, x2 = 0",1401 kg/m3
same,viscosity,"343 K, x2 = 0",6.79 mPa·s
same,electrical conductivity,"343 K, x2 = 0.1",3.62 S/m
same,mass density,"343 K, x2 = 0.1",1439 kg/m3
same,viscosity,"343 K, x2 = 0.1",8.38 mPa·s
same,electrical conductivity,"343 K, x2 = 0.2",3.12 S/m
same,mass density,"343 K, x2 = 0.2",1480 kg/m3
same,viscosity,"343 K, x2 = 0.2",10.8 mPa·s
same,electrical conductivity,"348 K, x2 = 0",4.47 S/m
same,mass density,"348 K, x2 = 0",1397 kg/m3
same,viscosity,"348 K, x2 = 0",6.22 mPa·s
same,electrical conductivity,"348 K, x2 = 0.2",3.42 S/m
same,mass density,"348 K, x2 = 0.2",1476 kg/m3
same,viscosity,"348 K, x2 = 0.2",9.81 mPa·s
same,electrical conductivity,"353 K, x2 = 0",4.82 S/m
same,mass density,"353 K, x2 = 0",1393 kg/m3
same,viscosity,"353 K, x2 = 0",5.74 mPa·s
same,electrical conductivity,"353 K, x2 = 0.1",4.27 S/m
same,mass density,"353 K, x2 = 0.1",1430 kg/m3
same,viscosity,"353 K, x2 = 0.1",6.95 mPa·s
same,electrical conductivity,"353 K, x2 = 0.2",3.74 S/m
same,mass density,"353 K, x2 = 0.2",1471 kg/m3
same,viscosity,"353 K, x2 = 0.2",8.84 mPa·s
same,electrical conductivity,"358 K, x2 = 0",5.19 S/m
same,mass density,"358 K, x2 = 0",1388 kg/m3
same,viscosity,"358 K, x2 = 0",5.32 mPa·s
same,electrical conductivity,"358 K, x2 = 0.2",4.06 S/m
same,mass density,"358 K, x2 = 0.2",1467 kg/m3
same,viscosity,"358 K, x2 = 0.2",7.98 mPa·s
same,electrical conductivity,"363 K, x2 = 0",5.57 S/m
same,mass density,"363 K, x2 = 0",1384 kg/m3
same,viscosity,"363 K, x2 = 0",4.96 mPa·s
same,electrical conductivity,"363 K, x2 = 0.1",4.97 S/m
same,mass density,"363 K, x2 = 0.1",1421 kg/m3
same,viscosity,"363 K, x2 = 0.1",5.91 mPa·s
same,electrical conductivity,"363 K, x2 = 0.2",4.4 S/m
same,mass density,"363 K, x2 = 0.2",1462 kg/m3
same,viscosity,"363 K, x2 = 0.2",7.31 mPa·s
same,electrical conductivity,"368 K, x2 = 0",5.97 S/m
same,mass density,"368 K, x2 = 0",1380 kg/m3
same,viscosity,"368 K, x2 = 0",4.65 mPa·s
same,electrical conductivity,"368 K, x2 = 0.1",5.34 S/m
same,mass density,"368 K, x2 = 0.1",1417 kg/m3
same,viscosity,"368 K, x2 = 0.1",5.5 mPa·s
same,electrical conductivity,"373 K, x2 = 0",6.36 S/m
same,viscosity,"373 K, x2 = 0",4.4 mPa·s
same,electrical conductivity,"373 K, x2 = 0.1",5.72 S/m
same,viscosity,"373 K, x2 = 0.1",5.16 mPa·s
same,electrical conductivity,"373 K, x2 = 0.2",5.1 S/m
same,viscosity,"373 K, x2 = 0.2",6.26 mPa·s
same,electrical conductivity,"378 K, x2 = 0",6.81 S/m
same,viscosity,"378 K, x2 = 0",4.13 mPa·s
same,electrical conductivity,"378 K, x2 = 0.1",6.13 S/m
same,viscosity,"378 K, x2 = 0.1",4.8 mPa·s
same,electrical conductivity,"378 K, x2 = 0.2",5.45 S/m
same,viscosity,"378 K, x2 = 0.2",5.78 mPa·s
same,electrical conductivity,"383 K, x2 = 0",7.31 S/m
same,viscosity,"383 K, x2 = 0",3.88 mPa·s
same,electrical conductivity,"383 K, x2 = 0.1",6.52 S/m
same,viscosity,"383 K, x2 = 0.1",4.49 mPa·s
same,electrical conductivity,"383 K, x2 = 0.2",5.81 S/m
same,viscosity,"383 K, x2 = 0.2",5.36 mPa·s
same,electrical conductivity,"388 K, x2 = 0",7.86 S/m
same,viscosity,"388 K, x2 = 0",3.66 mPa·s
same,electrical conductivity,"388 K, x2 = 0.1",6.94 S/m
same,viscosity,"388 K, x2 = 0.1",4.2 mPa·s
same,electrical conductivity,"388 K, x2 = 0.2",6.18 S/m
same,viscosity,"388 K, x2 = 0.2",4.98 mPa·s
